These results are taken from patent US20260234738A1.

Assay [1] has as its target UNMODIFIED-SARS-CoV-2 Spike Protein (RBD)([…]).mmH (SARS-CoV-2). In words: Luminex bead binding, antibody supernatant. The note with it: remark: other sources report otherwise.
Assay [2] deals with SARS-COV-2 RBD-MMH (SARS-CoV-2). The assay can be described thus: SPR. The note with it: remark: other sources report otherwise.

B1: mAb10986 (antibody)
heavy: EVQLVESGGGLVQPGGSLRLSCAASEFTVSSNYMSWVRQAPGKGLEWVSVIYSGGSTFYADSVKGRFTISRDNSKNTLYLQMNSLRAEDTAVYYCARALPYGDLHFDYWGQGTLVTVSSASTKGPSVFPLAPSSKSTSGGTAALGCLVKDYFPEPVTVSWNSGALTSGVHTFPAVLQSSGLYSLSSVVTVPSSSLGTQTYICNVNHKPSNTKVDKKV[human IgG1 Fc left out]
light: QSVLTQPPSVSGAPGQRVTISCTGSSSNIGTGYDVHWYQQLPGTAPKLLIYGNTNRPSGVPDRFSGSKSGTSASLAITGLQAEDEADYYCQSYDSSLSDSYVFGTGTKVTVLGQPKAAPSVTLFPPSSEELQANKATLVCLISDFYPGAVTVAWKADSSPVKAGVETTTPSKQSNNKYAASSYLSLTPEQWKSHRSYSCQVTHEGSTVEKTVAPTECS
As usually defined, the Kd is the concentration at which binding is half-saturated. Read a low Kd as a tighter complex. One may read the t½ as the time in which the quantity being followed falls by half. The low end stands for fast loss, the high end for slow loss. As for B1, the binding signal (MFI) in assay [1] is 25400 MFI. Moreover, in assay [2], the dissociation constant Kd amounted to 0.797 nM and the t½ amounted to 45.2 min.

B2: mAb10957 (antibody)
heavy: EVQLVESGGGLVQPGGSLRLSCAASGVTVSSNYMSWVRQAPGKGLEWVSVIYSGGSTFYADSVKGRFTISRDNSKNTLFLQMNSLRIEDTAVYYCARDLGPYGMDVWGQGTTVTVSSASTKGPSVFPLAPSSKSTSGGTAALGCLVKDYFPEPVTVSWNSGALTSGVHTFPAVLQSSGLYSLSSVVTVPSSSLGTQTYICNVNHKPSNTKVDKKV[human IgG1 Fc left out]
light: DIQLTQSPSFLSASVGDRVTITCRASQGISSYLAWYQQKPGKAPKLLIYAASTLQSGVPSRFSGSGSGTQFILTISSLQPEDFATYYCQQLNSYPGFTFGPGTKVDIKRTVAAPSVFIFPPSDEQLKSGTASVVCLLNNFYPREAKVQWKVDNALQSGNSQESVTEQDSKDSTYSLSSTLTLSKADYEKHKVYACEVTHQGLSSPVTKSFNRGEC
In assay [1], B2 registered a binding signal (MFI) of 20900 MFI. In assay [2], the dissociation constant (Kd) was determined as 2.35 nM and the t½ is 36.7 min.

B3: mAb10956 (antibody)
heavy: EVQLVESGGGLVQPGGSLRLSCAASGLTVSSNYMSWVRQAPGKGLEWVSVIYSGGSTFYADSVKGRFTISRDNSKNTLYLQMNSLRAEDTAVYYCARDLIKYGMDVWGQGTTVTVSSASTKGPSVFPLAPSSKSTSGGTAALGCLVKDYFPEPVTVSWNSGALTSGVHTFPAVLQSSGLYSLSSVVTVPSSSLGTQTYICNVNHKPSNTKVDKKV[human IgG1 Fc left out]
light: DIQMTQSPSSLSASVGDRVTITCQASQDISNYLNWYQQKPGKAPKLLIYDASNLETGVPSRFSGSGSGTDFTFTISSLQPEDIATYYCQQYDNLPPHFGPGTKVDIKRTVAAPSVFIFPPSDEQLKSGTASVVCLLNNFYPREAKVQWKVDNALQSGNSQESVTEQDSKDSTYSLSSTLTLSKADYEKHKVYACEVTHQGLSSPVTKSFNRGEC
In the case of B3, the binding signal (MFI) in assay [1] worked out at 24600 MFI. In assay [2], this molecule displayed an equilibrium dissociation constant (Kd) of 26.2 nM and a t½ of 2.2 min.

B4: mAb10914 (antibody)
heavy: EVQLVESGGGLVQPGGSLRLSCAASGLIVSRNYMIWVRQAPGKGLEWVSVIYSGGSTFYADSVKGRFTISRHNSKNTLYLQMNSLRAEDTAVYYCARDLGTGGMDVWGQGTTVTVSSASTKGPSVFPLAPSSKSTSGGTAALGCLVKDYFPEPVTVSWNSGALTSGVHTFPAVLQSSGLYSLSSVVTVPSSSLGTQTYICNVNHKPSNTKVDKKV[human IgG1 Fc left out]
light: DIQLTQSPSFLSASVGDRVTITCWASQGISSYLAWYQQKPGKAPKLLIYAASTLQSGVPSRFSGSGSGTEFTLTISSLQPEDFATYYCQQLNSYPLTFGGGTKVEIKRTVAAPSVFIFPPSDEQLKSGTASVVCLLNNFYPREAKVQWKVDNALQSGNSQESVTEQDSKDSTYSLSSTLTLSKADYEKHKVYACEVTHQGLSSPVTKSFNRGEC
B4: the binding signal (MFI) in assay [1] came out at 36000 MFI. In assay [2], this molecule showed a dissociation constant Kd of 38.9 nM and a t½ of 0.8 min.

B5: mAb10967 (antibody)
heavy: EVQLVESGGGLVQPGGSLRLSCAASGFTVSSNYMSWVRQAPGKGLEWVSVIYPGGSTFYADSVKGRFTISRDNSKNTLYLQMNSLRAEDTAVYYCARDQRDFAWGQGTLVTVSSASTKGPSVFPLAPSSKSTSGGTAALGCLVKDYFPEPVTVSWNSGALTSGVHTFPAVLQSSGLYSLSSVVTVPSSSLGTQTYICNVNHKPSNTKVDKKV[human IgG1 Fc left out]
light: DIQMTQSPSSLSASVGDRVTITCQASQDISNYLNWYQQKPGKAPKLLIYDASNLETGVPSRFSGSGSGTDFTFTISGLQPEDIATYYCQQYDNLPPTFGQGTRLEIKRTVAAPSVFIFPPSDEQLKSGTASVVCLLNNFYPREAKVQWKVDNALQSGNSQESVTEQDSKDSTYSLSSTLTLSKADYEKHKVYACEVTHQGLSSPVTKSFNRGEC
Take B5: in assay [1], the binding signal (MFI) stood at 26800 MFI. In assay [2], the dissociation constant Kd worked out at 0.966 nM and the t½ amounted to 107 min.

B6: mAb10932 (antibody)
heavy: EVQLVESGGGLVQSGGSLRLSCAASGLTVSSNYMSWVRQAPGKGLEWVSVIYSGGSTFYSDSVKGRFTISRHNSKNTLYLQMNSLRAEDTAVYYCARARGDAFDIWGQGTMVTVSSASTKGPSVFPLAPSSKSTSGGTAALGCLVKDYFPEPVTVSWNSGALTSGVHTFPAVLQSSGLYSLSSVVTVPSSSLGTQTYICNVNHKPSNTKVDKKV[human IgG1 Fc left out]
light: DIQMTQSPSSLSASVGDRVTITCQASQGISNYLNWYQQKPGKAPKLLISDASNLETGVPSRFSGSGSGTDFTFTISSLQPEDIATYYCQQYDNLRFFTFGPGTKVDIKRTVAAPSVFIFPPSDEQLKSGTASVVCLLNNFYPREAKVQWKVDNALQSGNSQESVTEQDSKDSTYSLSSTLTLSKADYEKHKVYACEVTHQGLSSPVTKSFNRGEC
As for B6, the binding signal (MFI) in assay [1] amounted to 34000 MFI. In assay [2], the Kd amounted to 1.48 nM and the t½ is 92 min.

B7: mAb10913 (antibody)
heavy: EVQLVESGGGLVQPGGSLRLSCAASGFTFRNYEMNWVRQAPGKGLEWVSYITSSGSTMYYADSVKGRFTISRDNAKNSLYLQMNSLRAEDTAVYYCARDGFYYYYAMDVWGQGTTVTVSSASTKGPSVFPLAPSSKSTSGGTAALGCLVKDYFPEPVTVSWNSGALTSGVHTFPAVLQSSGLYSLSSVVTVPSSSLGTQTYICNVNHKPSNTKVDKKV[human IgG1 Fc left out]
light: QSVLTQPPSVSAAPGQKVTISCSGSSSNIGNNYVSWYQQLPGTAPKLLIYDNNKRPSGIPDRFSGSKSGTSATLGITGLQTGDEADYYCGTWDSSLSVGRVFGTGTKVTVLGQPKAAPSVTLFPPSSEELQANKATLVCLISDFYPGAVTVAWKADSSPVKAGVETTTPSKQSNNKYAASSYLSLTPEQWKSHRSYSCQVTHEGSTVEKTVAPTECS
The molecule B7 came in with a binding signal (MFI) in assay [1] of 31700 MFI. Further, in assay [2], the Kd came out at 46.4 nM and the t½ came out at 0.5 min.

B8: mAb10937 (antibody)
heavy: QITLKESGPTLVKPTQTLTLTCTFSGFSLSTNVVGVGWIRQPPGKALEWLALIYWNDDKRYSPSLKSRLTITKDTSKNQVVLTMTNMDPVDTATYYCAHGPTGDYFDYWGQGTLVTVSSASTKGPSVFPLAPSSKSTSGGTAALGCLVKDYFPEPVTVSWNSGALTSGVHTFPAVLQSSGLYSLSSVVTVPSSSLGTQTYICNVNHKPSNTKVDKKV[human IgG1 Fc left out]
light: [about 100 residues left out][about 120 residues left out]
As to B8, the binding signal (MFI) in assay [1] was found to be 33600 MFI. For the same molecule, in assay [2], the equilibrium dissociation constant (Kd) amounted to 15 nM and the t½ worked out at 2 min.

B9: mAb11002 (antibody)
heavy: EVQLVESGGGLVQPGGSLRLSCAASGFTVSSNYMSWVRQAPGKGLEWVSVIYSGGSTFYADSVKGRFTISRHNSKNTLYLQMNSLRAEDTAVYYCAREGYGMDVWGQGTTVTVSSASTKGPSVFPLAPSSKSTSGGTAALGCLVKDYFPEPVTVSWNSGALTSGVHTFPAVLQSSGLYSLSSVVTVPSSSLGTQTYICNVNHKPSNTKVDKKV[human IgG1 Fc left out]
light: [about 100 residues left out][about 120 residues left out]
As a reminder, the koff is the rate constant with which the complex falls apart. A word on the kon: it is the rate constant with which the complex forms. In assay [1], B9 returned a binding signal (MFI) of 9880 MFI. In assay [2], this molecule registered a Kd of 79.3 nM, a koff of 0.0254 s⁻¹, an on-rate constant (kon) of 321000 M⁻¹ s⁻¹ and a t½ of 0.5 min.
